PubChem BioAssay AID624099, ICCB-Longwood | 2012

Screen: 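Knock-downs relieving repression by E2 of an HPV18 LCR luciferase reporter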 (primary screen)
System: human C33A cervical carcinoma cells (HPV-negative) stably expressing BPV1 E2 and an HPV18 LCR luciferase reporter
Reagent: siRNA pool against human genes, 40 nM
Timing: 72 h
Read-out: 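HPV18 LCR reporter light per well, converted to plate-wise z-scores that exclude control wells, and averaged over triplicate plates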
Reading the numbers: mean z-score and z-score: higher = stronger reporter signal, weaker E2 silencing
Hit rule: 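Mean z ≥ 2 together with z ≥ 2 in two or more of the three replicates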
Shown is a random part of about 21,000 reagents. In the full data, 497 (2.4%) got an active call. 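Higher z means weaker E2 silencing; only reporter increases were scored, and knock-downs that hurt cell survival may mask genuine repressor factors.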 Entries without a mark were called inactive.

no.	gene	mean z-score	z-score, replicate A	z-score, replicate B	z-score, replicate C
1	UPF3B	-1.45	-1.53	-1.35	-1.47
2	VPS36	-0.48	-0.87	-0.02	-0.55
3	SLA2	-1.54	-1.63	-1.52	-1.47
4	RSPH6A	0.65	1.1	0.21	0.63
5	MCC	-0.21	-0.04	-0.23	-0.35
6	CD40LG	0.17	0.26	0.07	0.2
7	LOC389666 (retired record)	-0.07	0.2	-0.14	-0.27
8	TIAM2	-0.05	0.1	-0.02	-0.22
9	GSK3B	0.98	1.31	0.82	0.82
10	LAMB1	0.15	0.28	0.23	-0.05
11	ZNF804B	1.65	1.51	1.67	1.77
12	SARAF	0.67	0.48	0.91	0.61
13	AFAP1-AS1	-0.81	-0.54	-1.02	-0.86
14	MMGT1	0.31	0.43	0.22	0.28
15	CMC1	-1.04	-0.94	-1.16	-1.03
16	DDX54	-1.24	-1.39	-1.11	-1.21
17	CTSO	-0.83	-1.21	-0.38	-0.89
18	H4C12	0.62	0.86	0.39	0.61
19	CCL25	-0.13	-0.11	-0.03	-0.26
20	ADORA2B	0.19	-0.05	0.44	0.18
21	ADCY9	-0.61	-0.73	-0.48	-0.61
22	GUCY2F	-0.34	-0.41	-0.17	-0.45
23	LOC147941 (retired record)	0.3	0.31	0.03	0.57
24	TMPRSS9	-0.18	0.16	-0.46	-0.23
25	LOC400829 (retired record)	0.2	0.14	0.41	0.06
26	CCL28	1.06	0.99	1.14	1.04
27	NXF4	0.38	0.82	-0.11	0.43
28	SFTPA1	0.09	0.12	0.23	-0.08
29	OR6K6	0.14	-0.11	0.33	0.19
30	ADGRG5	2.44 (active)	2.46	2.22	2.65
31	SPTBN4	-0.37	-0.47	-0.35	-0.29
32	SENP8	0.47	0.32	0.4	0.68
33	SLC34A3	-0.19	0.24	-0.72	-0.1
34	EIF2D	0.8	0.64	0.62	1.15
35	LINC01060	0.46	0.52	0.26	0.61
36	ZBED5	-0.3	0.05	-0.02	-0.93
37	CACNA1H	1.13	1.11	1.12	1.16
38	LOC440683 (retired record)	-1.55	-1.88	-1.18	-1.58
39	NIPAL3	1.05	0.68	0.93	1.56
40	KY	-0.54	-0.4	-0.78	-0.43
41	CDHR5	0.25	0.39	0.37	-0.01
42	RPS15	-1.92	-2.01	-1.96	-1.78
43	SFRP5	-1.57	-1.4	-1.7	-1.61
44	IZUMO2	-0.15	-0.32	0.18	-0.31
45	OR51B5	0.97	0.68	0.81	1.42
46	DENND5B	0.03	-0.22	0	0.3
47	COPZ2	0.69	1.29	0.65	0.12
48	LOC387915 (retired record)	1.59	1.31	1.78	1.67
49	SDE2	-1.02	-1.14	-1.08	-0.83
50	RBFOX1	1.26	1.44	1.19	1.14
51	NKTR	0.58	0.43	0.52	0.8
52	DNAI2	1.74	1.94	1.53	1.75
53	IQCC	1.09	1.34	0.46	1.46
54	SPATS2	-0.68	-0.66	-0.63	-0.75
55	ABCC1	1.7	1.49	1.81	1.81
56	TRIM51EP	2.22 (active)	1.93	2.36	2.38
57	MARCHF6	-0.72	-0.73	-0.65	-0.79

Taken from above:
Entry of COPZ2 in “z-score, replicate A”: 1.29
For “mean z-score”, SFRP5 shows -1.57
Result of LINC01060 under “z-score, replicate B”: 0.26
For “mean z-score”, LOC400829 (retired record) has 0.2
Entry for GUCY2F under “z-score, replicate B”: -0.17
NXF4, z-score, replicate C: 0.43
